# PubChem BioAssay AID624099 – ICCB-Longwood | 2012
# Test: 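Knock-downs relieving repression by E2 of an HPV18 LCR luciferase reporter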 (primary screen)
# Cell system: human C33A cervical carcinoma cells (HPV-negative) stably expressing BPV1 E2 and an HPV18 LCR luciferase reporter
# Reagent: siRNA pool against human genes, 40 nM
# Duration: 72 h
# Measurement: 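Per-well luciferase luminescence, z-scored on each plate against the plate mean and SD with control wells left out, then averaged across three replicate plates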
# Scale: mean z-score and z-score: higher = stronger reporter signal, weaker E2 silencing
# Hit rule: 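Mean z ≥ 2 together with z ≥ 2 in two or more of the three replicates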
# In all, the deposit lists about 21,000 reagents; below is a part drawn at random. In the full data, 497 (2.4%) are marked active. 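Higher z means weaker E2 silencing; only reporter increases were scored, and knock-downs that hurt cell survival may mask genuine repressor factors.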 No sequences are given here.
gene,PubChem SID,mean z-score,"z-score, replicate A","z-score, replicate B","z-score, replicate C",call
OR4N4 (olfactory receptor family 4 subfamily N member 4),SID134329755,-1.6,-1.8,-1.49,-1.52,inactive
NBPF15 (NBPF member 15),SID134322048,-0.03,-0.18,0.1,-0.01,inactive
KCTD20 (potassium channel tetramerization domain containing 20),SID134322294,-0.34,-0.39,-0.28,-0.16,inactive
"PMPCA (peptidase, mitochondrial processing subunit alpha)",SID134313591,0.01,-0.18,0.23,-0.04,inactive
TRPV6,SID134309963,1.25,1.38,1.26,1.12,inactive
NLRP1 (NLR family pyrin domain containing 1),SID134310457,0.38,0.44,0.63,0.07,inactive
RALGAPA1 (Ral GTPase activating protein catalytic subunit alpha 1),SID134325216,2.8,2.91,2.92,2.57,active
LOC400004 (retired record),SID134328382,-1.04,-1.01,-1.14,-0.98,inactive
EIF2S2 (eukaryotic translation initiation factor 2 subunit beta),SID134315877,-2.22,-2.07,-2.48,-2.11,inactive
SRP14P1 (SRP14 pseudogene 1),SID134328405,-0.47,-0.36,-0.69,-0.37,inactive
IYD (iodotyrosine deiodinase),SID134329421,-1.8,-2.1,-2.01,-1.29,inactive
LOC390877 (adenylate kinase isoenzyme 1-like),SID134328968,0.28,0.2,0.09,0.54,inactive
IFNAR2 (interferon alpha and beta receptor subunit 2),SID134319456,0.12,0.08,0.09,0.19,inactive
SYT13 (synaptotagmin 13),SID134318264,-1.12,-1.01,-1.33,-1.03,inactive
TUFT1 (tuftelin 1),SID134324821,-0.04,-0.17,-0.05,0.12,inactive
CRYL1 (crystallin lambda 1),SID134313587,0.63,0.61,0.32,0.95,inactive
TAF9 (TATA-box binding protein associated factor 9),SID134315742,0.52,0.45,0.31,0.81,inactive
FLJ44874 (retired record),SID134329582,0.21,0.27,-0.09,0.46,inactive
KRTAP13-3 (keratin associated protein 13-3),SID134322526,-0.91,-0.93,-0.86,-0.94,inactive
LOC389636 (retired record),SID134327972,1.48,1.28,1.56,1.58,inactive
TSC22D1 (TSC22 domain family member 1),SID134322205,0.36,0.26,0.44,0.38,inactive
"PCDHAC2 (protocadherin alpha subfamily C, 2)",SID134317479,-0.71,-0.66,-0.76,-0.72,inactive
IL27RA (interleukin 27 receptor subunit alpha),SID134313034,-1.11,-1.1,-0.95,-1.27,inactive
SULT1C2 (sulfotransferase family 1C member 2),SID134314561,-0.08,0,-0.14,-0.1,inactive
SLC2A4,SID134312563,0.46,0.27,0.26,0.86,inactive
ACYP2 (acylphosphatase 2),SID134313713,1.98,2.34,1.95,1.65,inactive

Entries listed so far called active, once more:
gene,PubChem SID,mean z-score,"z-score, replicate A","z-score, replicate B","z-score, replicate C",call
RALGAPA1 (Ral GTPase activating protein catalytic subunit alpha 1),SID134325216,2.8,2.91,2.92,2.57,active

Continued:
gene,PubChem SID,mean z-score,"z-score, replicate A","z-score, replicate B","z-score, replicate C",call
LOC387709 (retired record),SID134328158,-0.73,-1.03,-1.01,-0.16,inactive
DEPP1 (DEPP autophagy regulator 1),SID134316615,0.8,1.2,0.47,0.74,inactive
CDA (cytidine deaminase),SID134316892,-0.05,0.54,-0.58,-0.1,inactive
GAL3ST3 (galactose-3-O-sulfotransferase 3),SID134319129,-1.03,-0.93,-1.17,-0.99,inactive
CS (citrate synthase),SID134314092,-0.06,-0.23,-0.16,0.19,inactive
MMP9 (matrix metallopeptidase 9),SID134311395,-0.08,0.08,-0.19,-0.12,inactive
DCAF1 (DDB1 and CUL4 associated factor 1),SID134324726,-2.26,-2.12,-2.31,-2.35,inactive
PDE4A (phosphodiesterase 4A),SID134312691,0.36,0.26,0.46,0.37,inactive
NELL1 (neural EGFL like 1),SID134316473,-0.27,-0.52,-0.36,0.08,inactive
FBXO38 (F-box protein 38),SID134322044,-0.46,-0.06,-0.68,-0.65,inactive
RIPPLY3 (ripply transcriptional repressor 3),SID134324845,1.2,1.09,1.49,1.03,inactive
ZNF846 (zinc finger protein 846),SID134328974,1.37,1.19,1.57,1.34,inactive
PKD1L3,SID134322894,1.07,0.82,1.29,1.09,inactive
MTERF1 (mitochondrial transcription termination factor 1),SID134316623,0.03,-0.07,-0.05,0.21,inactive
ABI3BP (ABI family member 3 binding protein),SID134323255,0.38,0.2,0.34,0.59,inactive
LOC388019 (retired record),SID134328510,1.27,1.03,1.12,1.67,inactive
DNAJC4 (DnaJ heat shock protein family (Hsp40) member C4),SID134323800,1.31,1.31,1.42,1.22,inactive
SLFN13 (schlafen family member 13),SID134319836,1.52,1.54,1.61,1.43,inactive
A1BG (alpha-1-B glycoprotein),SID134315549,-1.08,-1.23,-1.12,-0.88,inactive
LGALS16 (galectin 16),SID134325808,-0.27,-0.62,-0.11,-0.07,inactive
RPS3 (ribosomal protein S3),SID134317825,-2.72,-2.52,-2.6,-3.04,inactive
TSPAN16 (tetraspanin 16),SID134316753,-0.42,-0.33,-0.6,-0.34,inactive
IFT70A (intraflagellar transport 70A),SID134320808,0.69,0.37,0.94,0.76,inactive
NOTCH4 (notch receptor 4),SID134316198,0.18,0.06,0.17,0.29,inactive
"YES1 (YES proto-oncogene 1, Src family tyrosine kinase)",SID56478562,-0.53,-0.45,-0.84,-0.29,inactive
CDC42SE1 (CDC42 small effector 1),SID134318011,-1,-0.86,-1.11,-1.03,inactive
TMPRSS7 (transmembrane serine protease 7),SID134325742,0.43,0.23,0.25,0.8,inactive
HECTD2 (HECT domain E3 ubiquitin protein ligase 2),SID134312317,-0.77,-1.03,-1.27,0.01,inactive
PRMT2 (protein arginine methyltransferase 2),SID134310236,0.36,0.37,0.3,0.43,inactive
PLG (plasminogen),SID134311425,1.19,1.14,1.25,1.17,inactive
GCKR (glucokinase regulator),SID134315633,0.61,0.95,0.49,0.38,inactive
